Measured values reported in publication PMC6237300, “Influenza B viruses circulated during last 5 years in Mongolia” (PLoS ONE, 2018).

Experiments:
Type in all cases: biochemical
Conditions in all cases: WHO definition: reduced 5 to 50fold, highly reduced more than 50-fold to reference strain
[1] = target: NA of B/Darkhan/1484/2014 (H101N, E105K) (Influenza B virus, UniProt U5XBU0, E105K/H101N); experiment: fluorescence-based NA inhibition assay (MUNANA), isolate B/Darkhan/1484/2014
[2] = target: NA of B/Ulaanbaatar/1495/2014 (E105K) (Influenza B virus, UniProt U5XBU0, E105K); experiment: fluorescence-based NA inhibition assay (MUNANA), isolate B/Ulaanbaatar/1495/2014
[3] = target: NA of B/Ulaanbaatar/1113/2014 (I114T) (Influenza B virus, UniProt U5XBU0, I114T); experiment: fluorescence-based NA inhibition assay (MUNANA), isolate B/Ulaanbaatar/1113/2014
[4] = target: NA of B/Khentii/1137/2014 (G140R) (Influenza B virus, UniProt U5XBU0, G140R); experiment: fluorescence-based NA inhibition assay (MUNANA), isolate B/Khentii/1137/2014

CC(=O)N[C@H]1[C@H]([C@H](O)[C@H](O)CO)OC(C(=O)O)=C[C@@H]1N=C(N)N
susceptibility category [1]: reduced susceptibility | susceptibility category [2]: reduced susceptibility | susceptibility category [3]: sensitive | susceptibility category [4]: sensitive
